System: NV in the replicon harboring cells (HG23 cells)
Test: Cell-based norovirus replicon system
Parameters: species or system norovirus (NV)
Conditions: read-out: EC50 (μM) ± SD, Table 12

SMILES: CC(C)(COC(=O)N[C@@H](CC1CCCCC1)C(=O)N[C@H](C=O)C[C@@H]1CCNC1=O)Cc1cccc(Cl)c1
- EC50: 0.06 µM
